# Laboratory results from PubChem BioAssay AID1943 (The Scripps Research Institute Molecular Screening Center, 2009).
# Only a part is listed here, and it is no random draw. The source made the active and inactive calls.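 Rule for the calls: active = inhibition above the mean of all tested compounds plus 3 SD, cutoff set per campaign (cut at about 36% in these data); inactive = the rest.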
# Test system: Hepatitis C virus NS3 helicase
# Experiment: HCV NS3 helicase inhibitors, retest, confirmation, biochemical, Cy5 molecular beacon fluorescence, triplicate (AID 1943)
# Conditions: NS3 helicase DNA unwinding, at 10.9 µM, stronger effect = higher value
# Method in brief: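 Material – hepatitis C virus NS3 helicase fragment · Medium – MOPS pH 6.5 buffer with additives · Compound – single nominal final dose of 10.9 µM, DMSO vehicle · Times – 0 and 60 min reads at 25 °C · Detection – Cy5 fluorescence · Read-out basis – % inhibition of unwinding · Benchmarks – DMSO and thioflavine S wells · Replication – triplicate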
row,Compound,inhibition
1,Nc1cccc2c([As](=O)(O)O)cccc12,inactive: -16.6%
2,O=[N+]([O-])c1cc([N+](=O)[O-])c(CCN2CCOCC2)c([N+](=O)[O-])c1,inactive: 13.2%
3,C[N+]1=C2C=CC=CC=C2SC12C([N+](=O)[O-])=CC([N+](=O)[O-])=C[C-]2[N+](=O)[O-] (stereo not drawn),inactive: 15.8%
